Anti-infective test results gathered from many reports (values: NIAID ChemDB through PubChem).

Shared fields: tests in culture; agent: Aspergillus niger; measure: MIC

Neighbouring rows are from separate reports.

smiles,strain or isolate,method,setting,value
CCCCCCCCCCCC(=O)NC(CCCN)C(=O)NC(CCCN)C(=O)NC(CCCN)C(=O)NC(CCCN)C(N)=O,ATCC 64028,broth dilution,-,12.5 µg/mL
Cc1cc(C)cc(/C=C2\SC(=O)N(CCC(=O)Nc3ccc(C)cc3Cl)C2=O)c1,-,-,-,>100 µg/mL
COc1ccccc1OC/C(=N/O)c1ccccc1,ATCC 16404,broth dilution,48 h,>125 µg/mL
CCn1cc(C(=O)O)c(=O)c2cc(F)c(N3CCN(CN4C(=O)C(=Nc5ccc(S(=O)(=O)Nc6ncccn6)cc5)c5cc(Br)ccc54)CC3)cc21,-,-,-,78.12 µg/mL
Cc1cc(Cl)[nH]c2ccc3c(=O)c(C(=O)NN=Cc4cc([N+](=O)[O-])ccc4O)cnc3c12,-,broth dilution,-,1000 µg/mL
[Br][Cd][Br].c1cnc2c(SCc3ccncc3)cccc2c1,-,broth dilution / visual reading,-,>238 µM
O=C(N[C@H](Cc1cn(Cc2ccccc2)nn1)C(=O)OCc1cn(Cc2ccccc2)nn1)OCc1ccccc1,MTCC 281,-,-,10.3 µM
[I][Cd][I].c1ccc(CSc2cccc3cccnc23)nc1,-,broth dilution / visual reading,-,101 µM
O=C(COc1cccc(Cl)c1)c1ccccc1,ATCC 16404,broth dilution,72 h,>125 µg/mL
O=C(N[C@H](Cc1cn(Cc2ccc([N+](=O)[O-])cc2)nn1)C(=O)OCc1cn(Cc2ccc([N+](=O)[O-])cc2)nn1)OCc1ccccc1,MTCC 281,-,-,17.8 µM
COc1cc(C)c2c(=O)cc(CC(C)=O)oc2c1C1O[C@@H](CO)[C@H](O)[C@@H](O)[C@@H]1OC(=O)/C=C\c1ccc(O)cc1,ATCC 6275,agar diffusion,-,1810 µM
CCCCCCCCCCCC(=O)NC(CCCN)C(=O)NC(CCCN)C(=O)NC(CCCN)C(=O)NC(CCCN)C(=O)NC(CCCN)C(N)=O,ATCC 64028,broth dilution,-,12.5 µg/mL
CCn1cc(C(=O)O)c(=O)c2cc(F)c(N3CCN(CN4C(=O)C(=Nc5ccc(S(=O)(=O)Nc6ncnc(OC)c6OC)cc5)c5cc(Cl)ccc54)CC3)cc21,-,-,-,39.06 µg/mL
COc1ccccc1OCC(=O)c1ccccc1,ATCC 16404,broth dilution,48 h,>125 µg/mL
O=C(CCN1C(=O)S/C(=C\c2cccc(O)c2)C1=O)Nc1cccc(O)c1,-,-,-,12.5 µg/mL
Clc1ccc(CO/N=C2/c3ccc(Cl)cc3OCC2n2cnnc2)cc1,ATCC 16401,-,-,64 µg/mL
CCCCCCCCCCCCCC(=O)NC(CCCN)C(=O)NC(CCCN)C(=O)NC(CCCN)C(N)=O,ATCC 64028,broth dilution,-,6.25 µg/mL
COc1cc(C=NNC(=O)c2cnc3c(ccc4[nH]c(Cl)cc(C)c43)c2=O)ccc1O,-,broth dilution,-,1000 µg/mL
CC(C)CC1NC(=O)CC(CCCCCCCCC(C)O)OC(=O)C(CC(C)C)NC(=O)C(CC(C)C)NC(=O)C(CC(C)C)NC(=O)C(C(C)C)NC(=O)C(CC(=O)O)NC(=O)C(CC(C)C)NC1=O,ATCC 16404,absorbance,-,16 µg/mL
O/N=C(/COc1cccc(Cl)c1)c1ccccc1,ATCC 16404,broth dilution,48 h,>125 µg/mL
COc1ccc(C=NNC(=O)c2cnc3c(ccc4[nH]c(Cl)cc(C)c43)c2=O)cc1,-,broth dilution,-,500 µg/mL
CCCCCCCCCCCCCCCC(=O)NC(CCCN)C(=O)NC(CCCN)C(=O)NC(CCCN)C(=O)NC(CCCN)C(N)=O,ATCC 64028,broth dilution,-,6.25 µg/mL
O=C(N[C@H](Cc1cn(Cc2cccc([N+](=O)[O-])c2)nn1)C(=O)OCc1cn(Cc2cccc([N+](=O)[O-])c2)nn1)OCc1ccccc1,MTCC 281,-,-,8.9 µM
CCn1cc(C(=O)O)c(=O)c2cc(F)c(N3CCN(CN4C(=O)/C(=N\c5ncc(Cc6cc(OC)c(OC)c(OC)c6)c(N)n5)c5cc(Cl)ccc54)CC3)cc21,-,-,-,78.12 µg/mL
Cc1cc(Cl)[nH]c2ccc3c(=O)c(C(=O)NN4C(=O)C(Cl)C4c4ccc(Cl)cc4)cnc3c12,-,broth dilution,-,500 µg/mL
O=C(CCN1C(=O)S/C(=C\c2ccccc2F)C1=O)Nc1ccccc1,-,-,-,50 µg/mL
COc1cc(C2C(Cl)C(=O)N2NC(=O)c2cnc3c(ccc4[nH]c(Cl)cc(C)c43)c2=O)ccc1O,-,broth dilution,-,500 µg/mL
CCCCCCCC(=O)NC(CCCN)C(=O)NC(CCCN)C(=O)NC(CCCN)C(=O)NC(CCCN)C(=O)NC(CCCN)C(N)=O,ATCC 64028,broth dilution,-,>100 µg/mL
COc1cccc(OCC(=O)c2ccccc2)c1,ATCC 16404,broth dilution,72 h,>125 µg/mL
c1ccc(CO/N=C2\c3ccccc3OCC2n2cnnc2)cc1,ATCC 16401,-,-,>64 µg/mL
CCn1cc(C(=O)O)c(=O)c2cc(F)c(N3CCN(CN4C(=O)C(=Nc5ccc(S(=O)(=O)Nc6ncnc(OC)c6OC)cc5)c5cc(Br)ccc54)CC3)cc21,-,-,-,19.35 µg/mL
O=C(CCN1C(=O)S/C(=C\c2ccc(Cl)cc2)C1=O)Nc1ccccc1[N+](=O)[O-],-,-,-,25 µg/mL
CCCCCCCCCCCCCCCCCC(=O)NC(CCCN)C(=O)NC(CCCN)C(=O)NC(CCCN)C(N)=O,ATCC 64028,broth dilution,-,3.1 µg/mL
CCn1cc(C(=O)O)c(=O)c2cc(F)c(N3CCN(CN4C(=O)C(=Nc5ccc(S(=O)(=O)Nc6ncccn6)cc5)c5cc(Cl)ccc54)CC3)cc21,-,-,-,156 µg/mL
O=C(COc1ccccc1)c1ccccc1,ATCC 16404,broth dilution,72 h,>125 µg/mL
Cc1ccc(Cn2cc(COC(=O)[C@@H](Cc3cn(Cc4ccc(C)cc4)nn3)NC(=O)OCC(C)(C)C)nn2)cc1,MTCC 281,-,-,20.2 µM
Cc1ccc(Cl)c(NC(=O)CCN2C(=O)S/C(=C\c3cccc(O)c3)C2=O)c1,-,-,-,25 µg/mL
Cc1ccc(C2C(Cl)C(=O)N2NC(=O)c2cnc3c(ccc4[nH]c(Cl)cc(C)c43)c2=O)cc1,-,broth dilution,-,>1000 µg/mL
Clc1ccc(CO/N=C2/c3ccccc3OCC2n2cnnc2)c(Cl)c1,ATCC 16401,-,-,64 µg/mL
Cc1ccc(/C=C2\SC(=O)N(CCC(=O)Nc3ccccc3O)C2=O)c(C)c1,-,-,-,25 µg/mL
Clc1ccc(CO/N=C2/c3ccc(Cl)cc3OCC2n2cncn2)cc1,ATCC 16401,-,-,64 µg/mL
Cc1cc(NC(=O)CCN2C(=O)S/C(=C\c3cccc(Br)c3)C2=O)ccc1Cl,-,-,-,>100 µg/mL

The last 5 rows once more:

Cc1ccc(C2C(Cl)C(=O)N2NC(=O)c2cnc3c(ccc4[nH]c(Cl)cc(C)c43)c2=O)cc1 ; method: broth dilution ; value: >1000 µg/mL
Clc1ccc(CO/N=C2/c3ccccc3OCC2n2cnnc2)c(Cl)c1 ; strain or isolate: ATCC 16401 ; value: 64 µg/mL
Cc1ccc(/C=C2\SC(=O)N(CCC(=O)Nc3ccccc3O)C2=O)c(C)c1 ; value: 25 µg/mL
Clc1ccc(CO/N=C2/c3ccc(Cl)cc3OCC2n2cncn2)cc1 ; strain or isolate: ATCC 16401 ; value: 64 µg/mL
Cc1cc(NC(=O)CCN2C(=O)S/C(=C\c3cccc(Br)c3)C2=O)ccc1Cl ; value: >100 µg/mL

An empty or dashed field is not shown.